A mixed list of measured activities; the numbers were collected in NIAID ChemDB.

Shared fields: whole-cell or culture tests; species: HIV-2; cell line: CEM + CEM/0; measure: EC50

Neighbouring rows are from separate reports. ECn: concentration that inhibits the pathogen or its effect by n%. Blank or dashed fields: not listed here.

SMILES,strain,read by,value
C=CCOC(=O)OC[C@H]1O[C@@H](n2cc(C)c(=O)n(C)c2=O)[C@H](O[Si](C)(C)C(C)(C)C)C12OS(=O)(=O)C=C2N,-,-,>10 µM
COC(=O)CCCCNP(=O)(OC[C@@H]1C=C[C@H](n2cc(C)c(=O)[nH]c2=O)O1)Oc1ccccc1,ROD,cytopathic effect / trypan blue,>250 µM
CC1(C)[C@@H](CO)CC[C@@]1(C)Cn1cc(I)c(=O)[nH]c1=O,-,-,>100 µg/mL
CC(C)(C)C(=O)OC[C@@H]1C=C[C@H](n2cc(I)c(=O)[nH]c2=O)O1,ROD,syncytia,>10 µM
CC1(C)[C@@H](CO)CC[C@@]1(C)Cn1cnc2c(=O)[nH]cnc21,-,-,>100 µg/mL
COC(=O)[C@H](Cc1ccccc1)NP(=O)(OC[C@@H]1C=C[C@H](n2cc(C)c(=O)[nH]c2=O)O1)Oc1ccccc1,-,cytopathic effect / microscopy,1.4 µM
COC(=O)CCCCCCNP(=O)(OC[C@@H]1C=C[C@H](n2cc(C)c(=O)[nH]c2=O)O1)Oc1ccccc1,ROD,cytopathic effect / trypan blue,110 µM
Cc1cn([C@@H]2O[C@H](COC(=S)N(C)C)C3(OS(=O)(=O)C=C3N)[C@H]2O[Si](C)(C)C(C)(C)C)c(=O)n(C)c1=O,-,-,>10 µM
O=c1[nH]c(=O)n([C@H]2C=C[C@@H](CO)O2)cc1I,ROD,syncytia,>50 µM
CC(C)=CCOC[C@H]1O[C@@H](n2cc(C)c(=O)n(C)c2=O)[C@H](O[Si](C)(C)C(C)(C)C)C12OS(=O)(=O)C=C2N,-,-,>10 µM
CC1(C)[C@@H](CO)CC[C@@]1(C)Cn1nnc2c(N)ncnc21,-,-,>100 µg/mL
Cc1cn([C@H]2C=C[C@@H](CO)O2)c(=O)[nH]c1=O,ROD,-,0.27 µM
Cc1cn([C@@H]2O[C@H](COC(=O)C(C)C)C3(OS(=O)(=O)C=C3N)[C@H]2O[Si](C)(C)C(C)(C)C)c(=O)n(C)c1=O,-,-,>50 µM
CC1(C)[C@@H](CO)CC[C@@]1(C)Cn1ccc(=O)[nH]c1=O,-,-,>100 µg/mL
Cc1cn([C@H]2C=C[C@@H](CO)O2)c(=O)[nH]c1=O,ROD,cytopathic effect / trypan blue,0.27 µM
Cc1cn([C@@H]2O[C@H](CN3CCN(Cc4ccccc4)CC3)C3(OS(=O)(=O)C=C3N)[C@H]2O[Si](C)(C)C(C)(C)C)c(=O)n(C)c1=O,-,-,>50 µM
COC(=O)[C@H](C)NP(=O)(OC[C@@H]1C=C[C@H](n2cc(C)c(=O)[nH]c2=O)O1)Oc1ccccc1,ROD,syncytia,0.2 µM
Cc1cn([C@@H]2O[C@H](CN3CCN(C)CC3)C3(OS(=O)(=O)C=C3N)[C@H]2O[Si](C)(C)C(C)(C)C)c(=O)n(C)c1=O,-,-,>10 µM
COC(=O)CNP(=O)(OC[C@@H]1C=C[C@H](n2cc(C)c(=O)[nH]c2=O)O1)Oc1ccccc1,ROD,cytopathic effect / trypan blue,6 µM
CCOC(=O)[C@H](C)NP(=O)(OC[C@@H]1C=C[C@H](n2cc(C)c(=O)[nH]c2=O)O1)Oc1ccccc1,-,cytopathic effect / microscopy,0.07 µM
COC(=O)C(C)NP(=O)(OC[C@@H]1C=C[C@H](n2cc(I)c(=O)[nH]c2=O)O1)Oc1ccccc1,ROD,syncytia,7 µM

The last 2 rows once more:

SMILES	strain	read by	value
CCOC(=O)[C@H](C)NP(=O)(OC[C@@H]1C=C[C@H](n2cc(C)c(=O)[nH]c2=O)O1)Oc1ccccc1	-	cytopathic effect / microscopy	0.07 µM
COC(=O)C(C)NP(=O)(OC[C@@H]1C=C[C@H](n2cc(I)c(=O)[nH]c2=O)O1)Oc1ccccc1	ROD	syncytia	7 µM